Tested on: T. gondii RH strain
Experiment: Antiparasitic assay: T. gondii RH proliferation in Hs27 cells, [3H]uracil incorporation
Assay type: cell-based, Toxoplasma gondii
Conditions: ratio of CC30 (L929) to IC50Tg

| SMILES | SR (selectivity ratio) |
| --- | --- |
| Cc1ccc(NC(=S)NNC(=O)c2[nH]cnc2C)cc1 [Compound 8a] | 1.82 |
| Cc1nc[nH]c1C(=O)NNC(=S)Nc1ccc([N+](=O)[O-])cc1 [Compound 2a] | 10.12 |
| Cc1nc[nH]c1C(=O)NNC(=S)Nc1ccccc1Cl [Compound 3a] | 4.02 |
| Cc1nc[nH]c1C(=O)NNC(=S)Nc1cc(F)ccc1F [Compound 9a] | 2.95 |
| Cc1nc[nH]c1C(=O)NNC(=S)Nc1ccccc1Br [Compound 4a] | 7.43 |
| Cc1nc[nH]c1C(=O)NNC(=S)Nc1cccc([N+](=O)[O-])c1 [Compound 1a] | 9.56 |
| Cc1nc[nH]c1C(=O)NNC(=S)Nc1ccccc1I [Compound 5a] | 5.00 |
| Cc1nc[nH]c1C(=O)NNC(=S)Nc1cccc(I)c1 [Compound 6a] | 8.31 |
| COc1ccccc1NC(=S)NNC(=O)c1[nH]cnc1C [Compound 7a] | 4.17 |

Tested on: Toxoplasma gondii
Experiment: not given
Conditions: ratio of CC50 to IC50; cited from earlier work

| SMILES | SR (selectivity ratio) |
| --- | --- |
| Nc1ccc(S(=O)(=O)Nc2ncccn2)cc1 [sulfadiazine] | < 0.92 |
| COc1cc(Cc2cnc(N)nc2N)cc(OC)c1OC [Trimethoprim (TRI), Trimethoprim, reference compound] | > 1.20 |

Source: publication PMC8174488, “4-Arylthiosemicarbazide derivatives as a new class of tyrosinase inhibitors and anti-Toxoplasma gondii agents” (Journal of Enzyme Inhibition and Medicinal Chemistry, 2021)
